System: HIV-1LAI virus
Details: for IC50, inhibition of RT production: 247 TCID50 HIV-1LAI, CEM cells, 7 days; for inhibition of HIV-1 cell free virus infection: FIG. 1 legend
Description: Synthetic peptides were incubated at 37° C. with either 247 TCID50 (for experiment depicted in FIG. 2), or 62 TCID50 (for experiment depicted in FIG. 3) units of HIV-1LAI virus or 25 TCID50 units of HIV-2NIHZ and CEM CD4^+ cells at peptide concentrations of 0, 0.04, 0.4, 4.0, and 40 μg/ml for 7 days. The resulting reverse transcriptase (RT) activity in counts per minute was determined using the assay described, below, in Section 6.1.5. See Reed, L. J. et al., 1938, Am. J. Hyg. 27: 493-497 for an explanation of TCID50 calculations.
The micro-reverse transcriptase (RT) assay was adapted from Goff et al. (Goff, S. et al., 1981, J. Virol. 38:239-248) and Willey et al. (Willey, R. et al., 1988, J. Virol. 62:139-147). Supernatants from virus/cell cultures are adjusted to 1% Triton-X100. A 10 μl sample of supernatant was added to 50 μl of RT cocktail in a 96-well U-bottom microtitre plate and the samples incubated at 37° C. for 90 min. The RT cocktail contained 75 mM KCl, 2 mM dithiothreitol, 5 mM MgCl2, 5 μg/ml poly A (Pharmacia, cat. No. 27-4110-01), 0.25 units/ml oligo dT (Pharmacia, cat. No. 27-7858-01), 0.05% NP40, 50 mM Tris-HCl, pH 7.8, 0.5 μM non-radioactive dTTP, and 10 μCi/ml ^32P-dTTP (Amersham, cat. No. PB.10167).
After the incubation period, 40 μl of reaction mixture was applied to a Schleicher and Schuell (S+S) NA45 membrane (or DE81 paper) saturated in 2×SSC buffer (0.3M NaCl and 0.003M sodium citrate) held in a S+S Minifold over one sheet of GB003 (S+S) filter paper, with partial vacuum applied. Each well of the minifold was washed four times with 200 μl 2×SSC, under full vacuum. The membrane was removed from the minifold and washed 2 more times in a pyrex dish with an excess of 2×SSC. Finally, the membrane was drained on absorbent paper, placed on Whatman #3 paper, covered with Saran wrap, and exposed to film overnight at −70° C.
DP178 (SEQ ID:1) was next tested for its ability to block CD-4^+ CEM cell infection by cell free HIV-1 virus. […] Each concentration (0, 0.04, 0.4, 4, and 40 μg/ml) of peptide was incubated with 247 TCID50 units of HIV-1LAI virus and CEM cells. After 7 days of culture, cell-free supernatant was tested for the presence of RT activity as a measure of successful infection.

## CC[C@H](C)[C@H](NC(=O)[C@H](C)NC(=O)[C@@H](NC(=O)[C@@H](NC(=O)[C@H](CCCNC(=N)N)NC(=O)[C@H](C)NC(=O)[C@H](CCC(N)=O)NC(=O)[C@H](CC(C)C)NC(=O)[C@H](CC(N)=O)NC(=O)[C@H](CCCCN)NC(=O)[C@@H](NC(=O)CNC(=O)[C@H](Cc1c[nH]c2ccccc12)NC(=O)[C@@H](NC(=O)[C@@H](NC(=O)[C@H](CC(C)C)NC(=O)[C@H](CCCNC(=N)N)NC(=O)[C@H](CC(C)C)NC(=O)[C@H](CCSC)NC(=O)[C@H](CCC(=O)O)NC(=O)[C@H](CCC(N)=O)NC(=O)[C@H](CCC(N)=O)NC(=O)[C@H](CCCNC(=N)N)NC(=O)[C@H](CCCCN)NC(=O)[C@@H](NC(=O)[C@@H](NC(=O)[C@H](CC(=O)O)NC(=O)[C@H](CC(C)C)NC(=O)[C@H](CC(C)C)NC(=O)[C@H](CCC(N)=O)NC(=O)[C@H](CCC(N)=O)NC(C)=O)C(C)C)C(C)C)[C@@H](C)O)C(C)C)[C@@H](C)O)C(C)C)[C@@H](C)O)C(=O)N[C@@H](CCC(=O)O)C(=O)N[C@@H](CCCCN)C(=O)N[C@@H](Cc1ccc(O)cc1)C(=O)N[C@@H](CC(C)C)C(=O)N[C@@H](CCCCN)C(=O)N[C@@H](CC(=O)O)C(=O)N[C@@H](CCC(N)=O)C(N)=O [DP-118]
  IC50, inhibition of RT production: approximately 5 μg/ml
  inhibition of HIV-1 cell free virus infection: inhibits HIV-1 cell free virus infection

## CC[C@H](C)[C@H](NC(=O)CNC(=O)[C@H](Cc1c[nH]c2ccccc12)NC(=O)[C@@H](NC(=O)[C@@H](NC(=O)[C@H](CC(C)C)NC(=O)[C@H](CCC(N)=O)NC(=O)[C@H](CC(C)C)NC(=O)[C@H](CC(C)C)NC(=O)[C@H](Cc1c[nH]cn1)NC(=O)[C@H](CCC(N)=O)NC(=O)[C@H](CCC(N)=O)NC(=O)[C@H](C)NC(=O)[C@H](CCC(=O)O)NC(=O)[C@@H](NC(=O)[C@H](C)NC(=O)[C@H](CCCNC(=N)N)NC(=O)[C@H](CC(C)C)NC(=O)[C@H](CC(C)C)NC(=O)[C@H](CC(N)=O)NC(=O)[C@H](CC(N)=O)NC(=O)CNC(=O)CNC(=O)[C@H](CS)NC(C)=O)[C@@H](C)CC)[C@@H](C)O)C(C)C)C(=O)N[C@@H](CCCCN)C(=O)N[C@@H](CCC(N)=O)C(=O)N[C@@H](CC(C)C)C(=O)N[C@@H](CCC(N)=O)C(=O)N[C@@H](C)C(=O)N[C@@H](CCCNC(=N)N)C(=O)N[C@H](C(=O)N[C@@H](CC(C)C)C(=O)N[C@@H](C)C(=O)N[C@H](C(=O)N[C@@H](CCC(=O)O)C(=O)N[C@@H](CCCNC(=N)N)C(=O)N[C@@H](Cc1ccc(O)cc1)C(=O)N[C@@H](CC(C)C)C(=O)N[C@@H](CCCCN)C(=O)N[C@@H](CC(=O)O)C(=O)N[C@@H](CCC(N)=O)C(N)=O)C(C)C)[C@@H](C)CC [DP-125]
  IC50, inhibition of RT production: approximately 5 μg/ml
  inhibition of HIV-1 cell free virus infection: inhibits HIV-1 cell free virus infection

From patent US6750008B1, “Methods and compositions for inhibition of membrane fusion-associated events, including HIV transmission” (priority 1999, dated 2004)
